Construct, isoform or probe ends are uncertain for at least one entry. For part of these data: At least one verdict was read from the data and is not stated in words by the source.
Assays:
[1] = target: MogRD34ins 34-residue,insertion,between,sites,MIG,1 (Listeria monocytogenes) (UniProt P0DJO8); assay: FP; settings: 20 mM Hepes pH 7.4, 150 mM NaCl, 5 mM bME; FP room temperature with 1 nM dsDNA; recombinant protein; residues 1-162
[2] = target: MogRD49ins 49-residue,insertion,between,sites,MIG,1 (Listeria monocytogenes) (UniProt P0DJO8); assay: FP; settings: 20 mM Hepes pH 7.4, 150 mM NaCl, 5 mM bME; FP room temperature with 1 nM dsDNA; recombinant protein; residues 1-162
[3] = target: MogRD19ins 19-residue,insertion,between,sites,MIG,1 (Listeria monocytogenes) (UniProt P0DJO8); assay: FP; settings: 20 mM Hepes pH 7.4, 150 mM NaCl, 5 mM bME; FP room temperature with 1 nM dsDNA; recombinant protein; residues 1-162
[4] = test system: MogRD49ins + GmaRFL 49-residue,insertion,between,sites,MIG,1; assay: EMSA; settings: heterotrimeric complex with GmaRFL; 20 mM Hepes pH 7.4, 150 mM NaCl, 5 mM bME; EMSA 18 C 30 min (GmaR inhibition assays at room temperature, 10 min, 2:1 MogR:dsDNA); recombinant protein; label: none (ethidium bromide stain)
[5] = test system: MogRD34ins + GmaRFL 34-residue,insertion,between,sites,MIG,1; assay: EMSA; settings: heterotrimeric complex with GmaRFL; 20 mM Hepes pH 7.4, 150 mM NaCl, 5 mM bME; EMSA 18 C 30 min (GmaR inhibition assays at room temperature, 10 min, 2:1 MogR:dsDNA); recombinant protein; label: none (ethidium bromide stain)
[6] = test system: MogRD19ins + GmaRFL 19-residue,insertion,between,sites,MIG,1; assay: EMSA; settings: heterotrimeric complex with GmaRFL; 20 mM Hepes pH 7.4, 150 mM NaCl, 5 mM bME; EMSA 18 C 30 min (GmaR inhibition assays at room temperature, 10 min, 2:1 MogR:dsDNA); recombinant protein; label: none (ethidium bromide stain)

The chains behind the UniProt entries cited, without tags or fusion partners. Where a name states a change or a piece, a line headed by the entry shows the natural chain unless it says otherwise.
UniProt P0DJO8: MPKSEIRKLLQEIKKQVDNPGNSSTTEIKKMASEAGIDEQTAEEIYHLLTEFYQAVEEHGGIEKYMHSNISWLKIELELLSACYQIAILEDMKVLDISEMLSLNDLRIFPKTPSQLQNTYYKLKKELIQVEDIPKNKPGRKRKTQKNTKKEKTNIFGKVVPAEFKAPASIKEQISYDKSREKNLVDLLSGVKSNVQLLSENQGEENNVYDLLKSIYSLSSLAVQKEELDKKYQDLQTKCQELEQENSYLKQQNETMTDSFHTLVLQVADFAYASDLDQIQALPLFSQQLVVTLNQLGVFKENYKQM

Measured: binding result

ATTTGATTTTTTAAAAAAATGAAGA (double strand) [operator dsDNA, fluorescein-labeled]
binds: [1] | [2] | [3]

ATTTGATTTTTTAAAAAAATGAAGA (double strand) [operator dsDNA, unlabeled]
binds: [4] | [5] | [6]
